The experiment deals with cyclization domain Cy1 of HMWP2, wild type (Yersinia pestis). In words: NMR titration.

Experimental findings from publication PMC9286511, “Global protein dynamics as communication sensors in peptide synthetase domains” (2022) are described below.

As to “salicylate-loaded thiolation domain T1 of HMWP2 (domain or fragment)”, the population of the Cy1 minor conformer with loaded-T1 turned out to be 11%.
